Pooled drug test results. Numbers come from NIAID ChemDB, via PubChem.

All rows: whole-cell or culture tests; species: Mycobacterium avium complex; measure: MIC50

A number after MIC or MFC names an inhibition level or a share of isolates.

compound	strain	result
CC[C@H]1OC(=O)[C@H](C)C(=O)[C@H](C)[C@@H](O[C@@H]2O[C@H](C)C[C@H](N(C)C)[C@H]2O)[C@](C)(OC)C[C@@H](C)C(=O)[C@H](C)[C@H]2N(NCCCc3ccnc4ccccc34)C(=O)O[C@]12C	24 strains (HIV+)	9 µg/mL
CC[C@H]1OC(=O)C[C@@H](O)[C@H](C)[C@@H](O[C@@H]2O[C@H](C)[C@H](O)[C@H](N(C)C)[C@H]2O)[C@@H](CC=O)C[C@@H](C)C(=O)/C=C/C(C)=C/[C@@H]1COC(C)=O	28 strains	≥64 µg/mL
Cc1c(F)c(N2CCNC(C)C2)cc2c1c(=O)c(C(=O)O)cn2C1CC1	-	3.13 µg/mL
O=C(O)c1cn(N2CCOCC2)c2cc(NC3CC3)c([N+](=O)[O-])cc2c1=O	-	2.3 µM
C[C@@H]1CN(c2c(F)c(N)c3c(=O)c(C(=O)O)cn(C4CC4)c3c2F)C[C@H](C)N1	18 strains	1.56 µg/mL
CC[C@H]1OC(=O)[C@H](C)[C@@H](O[C@H]2C[C@@](C)(OC)[C@@H](O)[C@H](C)O2)[C@H](C)[C@@H](O[C@@H]2O[C@H](C)C[C@H](N(C)C)[C@H]2O)[C@](C)(OC)C[C@@H](C)C(=O)[C@H](C)[C@@H](O)[C@]1(C)O	28 strains	2 µg/mL
CC(=O)NC[C@H]1CN(c2ccc(N3CCN(Cc4ccc([N+](=O)[O-])o4)CC3)c(F)c2)C(=O)O1	31 isolates	8 µg/mL
O[C@@H](c1cc2ccc(C(F)(F)F)cc2c2cc(C(F)(F)F)ccc12)[C@@H]1CCCCN1	24 clinical isolates	2 µg/mL
CCNc1cc2c(cc1[N+](=O)[O-])c(=O)c(C(=O)O)cn2CC	-	>200 µM
CC[C@H]1OC(=O)[C@H](C)[C@@H](O[C@H]2C[C@@](C)(OC)[C@@H](O)[C@H](C)O2)[C@H](C)[C@@H](O[C@@H]2O[C@H](C)C[C@H](N(C)C)[C@H]2O)[C@](C)(OC)C[C@@H](C)C(=O)[C@H](C)[C@@H](O)[C@]1(C)O	19 strains (HIV+)	8 µg/mL
O=C(O)c1cn(C2CCC2)c2cc(NC3CCC3)c(F)cc2c1=O	-	>200 µM
CC(C)NC(=O)N1CCC(CN=c2cc3n(-c4ccc(Cl)cc4)c4ccccc4nc-3cc2Nc2ccc(Cl)cc2)CC1	5 strains	2 µg/mL
CC1COc2c(N3CCN(C)CC3)c(F)cc3c(=O)c(C(=O)O)cn1c23	18 strains	12.5 µg/mL
CC1COc2c(N3CCN(C)CC3)c(F)cc3c(=O)c(C(=O)O)cn1c23	89 isolates	16 µg/mL
O=C(O)c1cn(C2CCC2)c2cc(NC3CCC3)c([N+](=O)[O-])cc2c1=O	-	75.5 µM
CC[C@H]1OC(=O)C[C@@H](O)[C@H](C)[C@@H](O[C@@H]2O[C@H](C)[C@H](O)[C@H](N(C)C)[C@H]2O)[C@@H](CC=O)C[C@@H](C)C(=O)/C=C/C(C)=C/[C@@H]1C	28 strains	≥64 µg/mL
COc1cccc2c1[n+]([O-])c1cccc(O)c1[n+]2[O-]	5 strains	0.125 µg/mL
CCCCN(CCCC)C[C@@H](O)c1cc2c(Cl)cc(Cl)cc2c2cc(C(F)(F)F)ccc12	24 clinical isolates	8 µg/mL
COc1cccc2c1n([O-])c1cccc(OC)c1[n+]2=O	5 strains	8 µg/mL
O=C(O)c1cn(N2CCSCC2)c2cc(NC3CC3)c([N+](=O)[O-])cc2c1=O	-	1.1 µM
CCCCN(CCCC)C[C@H](O)c1cc2c(Cl)cc(Cl)cc2c2cc(C(F)(F)F)ccc12	24 clinical isolates	8 µg/mL
CC(C)(C)n1cc(C(=O)O)c(=O)c2cc([N+](=O)[O-])c(N3CCSCC3)cc21	-	9 µM
CC[C@H]1OC(=O)[C@H](C)[C@@H](O[C@H]2C[C@@](C)(OC)[C@@H](O)[C@H](C)O2)[C@H](C)[C@@H](O[C@@H]2O[C@H](C)C[C@H](N(C)C)[C@H]2O)[C@](C)(O)C[C@@H](C)/C(=N\OCOCCOC)[C@H](C)[C@@H](O)[C@]1(C)O	28 strains	8 µg/mL

A second listing of 3 rows from above:

CC[C@H]1OC(=O)C[C@@H](O)[C@H](C)[C@@H](O[C@@H]2O[C@H](C)[C@H](O)[C@H](N(C)C)[C@H]2O)[C@@H](CC=O)C[C@@H](C)C(=O)/C=C/C(C)=C/[C@@H]1C ; strain: 28 strains ; result: ≥64 µg/mL
O=C(O)c1cn(C2CCC2)c2cc(NC3CCC3)c(F)cc2c1=O ; result: >200 µM
Cc1c(F)c(N2CCNC(C)C2)cc2c1c(=O)c(C(=O)O)cn2C1CC1 ; result: 3.13 µg/mL

An empty or dashed field is not shown. Conditions beyond the fields shown may differ between rows.